Measured values from several laboratories, pooled; numbers as filed in NIAID ChemDB.

Shared fields: whole-cell or culture tests; species: Mycobacterium tuberculosis

Neighbouring rows are from separate reports.

SMILES	dose	method	read-out	strain or isolate	cell line	result
CCOC(=O)Nc1cc(NC(c2ccccc2)c2ccccc2)c([N+](=O)[O-])c(NCC(=O)c2ccc(Cl)cc2)n1			EC50	H37Rv		>12.5 µg/mL
CCCCCCCCCN1C(=O)CC(SCCNC(=O)c2ccc(C)cc2)C1=O			MIC	H37Rv		≤20 µg/mL
Cl.Nc1nc(N)nc(Nc2ccccc2)n1			MIC	H37Rv		>100 µg/mL
COc1cccc(Sc2ccncc2)c1	6.25 µg/mL		inhibition	H37Rv		12%
CN(C)C(=O)Sc1ccc(-c2c(-c3ccccc3)oc3ccc4ccccc4c23)cc1		BACTEC	MIC	H37Rv	VERO	1.6 µg/mL
CC(C)c1cc(C(C)C)c(C(=O)/C(=N/N)c2ccccc2)c(C(C)C)c1			MIC	H37Rv		>100 µg/mL
CCOC(=O)Nc1cc(NCC(=O)CN(C)c2ccc(C(=O)OC)cc2)c([N+](=O)[O-])c(N)n1	12.5 µg/mL		inhibition	H37Rv		0%
CC1COc2c(N3CCN(C)CC3)c(F)cc3c(=O)c(C(=O)O)cn1c23		broth dilution	MIC	Rifampicin-resistant JALMA		0.5 µg/mL
CCCCCCCOc1ccccc1NC(=O)OCCN1CCCCCC1			MIC	My 331/88		8 µM
N#CCC(=O)N/N=C1\C(=O)N(c2ccc(Cl)cc2)C(=O)C(=O)C1c1nc2ccccc2s1		BACTEC	MIC bound	H37Rv		>12.5 µg/mL
CC1=CC(=O)N(c2ccc(N3CCCCC3)cc2)C1=O			MIC	Clinical isolate (isoniazid-resistant)		≤20 µg/mL
CCOC(=O)Nc1cc(NCC(=O)CN(C)c2ccccc2)c([N+](=O)[O-])c(NC(=O)OCC)n1			EC50	H37Rv		>12.5 µg/mL
CCCCCCOc1cccc(NC(=O)OCCN2CCCCC2)c1			MIC	My 331/88		16 µM
CN[C@@H]1[C@H](O[C@H]2[C@H](O[C@H]3[C@H](O)[C@@H](O)[C@H](N=C(N)N)[C@@H](O)[C@@H]3N=C(N)N)O[C@@H](C)[C@]2(O)C=O)O[C@@H](CO)[C@H](O)[C@H]1O		broth dilution	MIC	H37Rv Erdman		0.125–0.25 µg/mL
COC(=O)N/N=C/c1oc(-c2ccccc2)c(-c2ccccc2)c1[N+](=O)[O-]	12.5 µg/mL	BACTEC	inhibition	H37Rv		-8%
CC[C@H]1OC(=O)[C@H](C)[C@@H](O[C@H]2C[C@@](C)(OC)[C@@H](O)[C@H](C)O2)[C@H](C)[C@@H](O[C@@H]2O[C@H](C)C[C@H](N(C)C)[C@H]2O)[C@](C)(OC)C[C@@H](C)C(=O)[C@H](C)[C@@H](O)[C@]1(C)O			MIC	101596		>4 µg/mL
COc1cc(OC)c2c(=O)cc(-c3cc(OC)c(OC)c(OC)c3)oc2c1			MIC	H37Rv		>12.5 µg/mL
CCN(CC)CCNc1c(O)cc(C)c2sc3ccccc3c(=O)c12		BACTEC	MIC bound	H37Rv		>12.5 µg/mL
COc1ccc(Sc2ncccn2)cc1OC			MIC	H37Ra		>12.8 µg/mL
O=c1c(O)c(-c2ccccc2)oc2ccc(Br)cc12			MIC	H37Rv		>12.5 µg/mL
C=CC1(C)CCC2C(=CCC3C2(C)CC(O)C(O)C3(C)COC2OC(CO)C(O)C(O)C2O)C1		BACTEC	MIC bound	H37Rv		>12.5 µg/mL
CO[C@H]1/C=C/O[C@@]2(C)Oc3c(C)c(O)c4c(O)c(c(/C=N/N5CCN(C)CC5)c(O)c4c3C2=O)NC(=O)/C(C)=C\C=C\[C@H](C)[C@H](O)[C@@H](C)[C@@H](O)[C@@H](C)[C@H](OC(C)=O)[C@@H]1C			MIC	42494		≥2 µg/mL
CN(C)CC(O)CO			MIC	H37Rv		>100 µg/mL
CCCCCCCC/C=C/CCCCCCCC(=O)N(C)N(C)C(=O)CCCCCCC/C=C/CCCCCCCC	12.5 µg/mL	BACTEC	inhibition	H37Rv		4%
CCCCCCCCNC1(C)CC(=O)N(CCCCCCCC)C1=O			MIC	H37Rv		≤20 µg/mL
CO[C@H]1/C=C/O[C@@]2(C)Oc3c(C)c(O)c4c(O)c(c(/C=N/N5CCN(C/C=C/c6ccccc6)CC5)c(O)c4c3C2=O)NC(=O)/C(C)=C\C=C\[C@H](C)[C@H](O)[C@@H](C)[C@@H](O)[C@@H](C)[C@H](OC(C)=O)[C@@H]1C			MIC	MTB36 (INH-R)		≤0.06 µg/mL
COc1cc(/C=N/NC(=O)C(C)SC(C)C(=O)N/N=C/c2cc(OC)c(OC)c(OC)c2)cc(OC)c1OC	12.5 µg/mL	BACTEC	inhibition	H37Rv		0%
CCOC(=O)C(=O)C1C(=O)C(=O)C(CCc2cccc3ccccc23)C1=O			MIC	H37Rv		>100 µg/mL
O=C1c2ccccc2C(=O)N1N1C(=O)C2C3CCC(O3)C2C1=O		BACTEC	MIC bound	H37Rv		>12.5 µg/mL
Cc1ccc(Sc2nc(Cl)nc3nc[nH]c23)cc1C			MIC90	H37Rv		>6.25 µg/mL
CC[C@H]1OC(=O)[C@H](C)[C@@H](O[C@H]2C[C@@](C)(OC)[C@@H](O)[C@H](C)O2)[C@H](C)[C@@H](O[C@@H]2O[C@H](C)C[C@H](N(C)C)[C@H]2O)[C@](C)(OC)C[C@@H](C)C(=O)[C@H](C)[C@@H](O)[C@]1(C)O			MBC	ATCC 35828		>8 µg/mL
O=C(c1ccccc1)C(Br)C(=O)c1ccccc1			MIC	H37Rv		>100 µg/mL
ClC1=CC(=N/Br)/C=CC/1=N\Br		BACTEC	MIC bound	H37Rv		>12.5 µg/mL
COc1ccc(/C=C/C(=O)c2ccc(Cl)cc2O)cc1			MIC	H37Rv		>12.5 µg/mL
Nc1ccc(S(=O)(=O)NO)cc1			MIC	H37Rv		>100 µg/mL
COc1cccc(CSc2ccccn2)c1			MIC	H37Ra		>12.8 µg/mL
CCOC(=O)c1ccc(NC(=O)ON=C(Cl)C(C)C)cc1	6.25 µg/mL	resazurin	inhibition	H37Rv		0%
C[C@H]1COc2c(N3CCN(C)CC3)c(F)cc3c(=O)c(C(=O)O)cn1c23			MIC	8S		0.5 µg/mL
CO[C@H]1/C=C/O[C@@]2(C)Oc3c(C)c(O)c4c(O)c(c(/C=N/N5CCN(C6CCCC6)CC5)c(O)c4c3C2=O)NC(=O)/C(C)=C\C=C\[C@H](C)[C@H](O)[C@@H](C)[C@@H](O)[C@@H](C)[C@H](O)[C@@H]1C			MIC	Isolate 900233 drug-susceptible		0.125 µg/mL
CO[C@H]1/C=C/O[C@@]2(C)Oc3c(C)c(O)c4c(=O)c(c5oc6cc(N7CCN(CC(C)C)CC7)cc(=O)c6nc5c4c3=C2O)NC(=O)/C(C)=C\C=C\[C@H](C)[C@H](O)[C@@H](C)[C@@H](O)[C@@H](C)[C@H](OC(C)=O)[C@@H]1C			MBC	27 (rifampin-resistant)		0.1 µg/mL
CC1N(C)CCC1(C)CN1c2ccccc2Sc2ccccc21.Cl			MIC	H37Rv	VERO	12.5 µg/mL
CCOC(=O)Nc1cc(NC(C)CCCN(CC)CC)c([N+](=O)[O-])c(N)n1			EC50	H37Rv		>12.5 µg/mL
CCCCOc1cccc(NC(=O)OCC[NH+]2CCCC2)c1			MIC	My 331/88		125 µM
C=C[C@H]1CN2CC[C@H]1C[C@@H]2[C@@H](O)c1ccnc2ccc(OC)cc12			MIC	H37Rv		>100 µg/mL
NNC(=O)c1ccncc1		broth dilution	MIC	Harlingen		0.03 µg/mL
CCNc1nn2ccccc2c1C=C(C#N)C(=O)OCC		resazurin	MIC bound	H37Rv		>6.25 µg/mL
CC(=O)NC[C@H]1CN(c2ccc(N3CCOCC3)c(F)c2)C(=O)O1			MIC	3R		0.5 µg/mL
CC1COc2c(N3CCN(C)CC3)c(F)cc3c(=O)c(C(=O)O)cn1c23			MIC90	Drug-resistant		1 µg/mL
Cc1cccc(Sc2nc(Cl)nc3nc[nH]c23)c1	6.25 µg/mL		inhibition	H37Rv		0%
NC1CCN(c2c(F)cc3c(=O)c(C(=O)O)cn(C4CC4)c3c2Cl)C1			MBC90	DRUG-SUS		1 µg/mL
Nc1ccc(S(=O)(=O)c2ccc(Cl)cc2)cc1			MIC	H37Rv		25 µg/mL
O=C1N(Cl)C(=O)C(c2ccccc2)(c2ccc(F)cc2)N1Cl		BACTEC	MIC bound	H37Rv		>12.5 µg/mL
O=C(Nc1ccc(NC(=O)c2cccc(S(=O)(=O)[O-])c2)c2c1C(=O)c1ccccc1C2=O)c1cccc(S(=O)(=O)[O-])c1.[Na+].[Na+]			MIC	H37Rv		>100 µg/mL
NC1CCN(c2nc3c(cc2F)c(=O)c(C(=O)O)cn3-c2ccc(F)cc2F)C1			MIC	ATCC 35826		2 µg/mL
COc1ccc(NC(=O)OCCN2CCOCC2)cc1			MIC	My 331/88		>1000 µM
CC(NC(C)c1ccccc1)c1ccccc1			MIC	H37Rv		>100 µg/mL
CCOc1ccc2c(c1)n([O-])c1cc(Br)ccc1[n+]2=O			MIC	EMB-R		1.6 µg/mL
O=c1cc(-c2ccccc2)oc2cc(I)ccc12	12.5 µg/mL		inhibition	H37Rv		9%
C(=C\c1ccnc(/C=C/c2ccccc2)c1)/c1ccccc1			MIC	H37Rv		50 µg/mL
C[C@H]1C[C@H](N)CN1c1cc2c(cc1F)c(=O)c(C(=O)O)cn2-c1ccc(F)cc1F			MIC50	MDR		>8 µg/mL
COC(COC(N)=O)C1=C(N2CC2)C(=O)C(C)=C(N2CC2)C1=O		BACTEC	MIC	H37Rv		64 µg/mL
O=C(CCN1C(=O)CCC1=O)Nc1ccc(N2CCCCC2)cc1			MIC	H37Rv		≤20 µg/mL
CCCCCC(=O)c1ccccc1			MIC	H37Rv		25 µg/mL
COc1ccc2c(=O)cc(-c3ccccc3)oc2c1			MIC	H37Rv		>12.5 µg/mL
Nc1ccc(P(=O)([O-])[O-])cc1.[Na+].[Na+]			MIC	H37Rv		>100 µg/mL
c1ccc(/C(=N/Nc2ccc3ccccc3n2)c2ccccn2)cc1	12.5 µg/mL	BACTEC	inhibition	H37Rv		99%
Nc1ccc(N2CCOCC2)nc1			MIC	H37Rv		>100 µg/mL
CO[C@H]1/C=C/O[C@@]2(C)Oc3c(C)c(O)c4c(O)c(c(/C=N/N5CCN(C)CC5)c(O)c4c3C2=O)NC(=O)/C(C)=C\C=C\[C@H](C)[C@H](O)[C@@H](C)[C@@H](O)[C@@H](C)[C@H](OC(C)=O)[C@@H]1C			MIC	TN804		>32 µg/mL
COc1cc2c(cc1OC)[C@@]13CCN4C=C5CCO[C@H]6CC(=O)N2[C@H]1[C@H]6[C@H]5C[C@H]43		BACTEC	MIC	H37Rv		≥12.8 µg/mL
CCOC(=O)Nc1cc2nc(C)c(-c3cccc(N)c3)nc2c(N)n1	12.5 µg/mL		inhibition	H37Rv		7%
COc1ccc(C=C[N+](=O)[O-])cc1			MIC	H37Rv		>100 µg/mL
CCC1CC2CC3c4[nH]c5ccc(O)cc5c4CCN(C2)C13.Cl	12.5 µg/mL	BACTEC	inhibition	H37Rv		-20%
Oc1ccc(Cl)cc1			MIC	H37Rv		50 µg/mL
COc1ccccc1NC(=O)OCC[NH+]1CCCC1			MIC	My 331/88		1000 µM
CC(N)Cc1ccccc1			MIC	H37Rv		>100 µg/mL
CO[C@H]1/C=C/O[C@@]2(C)Oc3c(C)c(O)c4c(=O)c(c5oc6cc(N7CCN(C(C)C)CC7)cc(=O)c6nc5c4c3=C2O)NC(=O)/C(C)=C\C=C\[C@H](C)[C@H](O)[C@@H](C)[C@@H](O)[C@@H](C)[C@H](OC(C)=O)[C@@H]1C			MBC	29 (rifampin-resistant)		0.2 µg/mL
CCCCCCCCCCCCCCCCCCn1c(C)ccc1C			MIC	H37Rv		>100 µg/mL
Cn1c(C(C)(C)OC(=O)Oc2ccccc2)cnc1[N+](=O)[O-]			MIC bound	H37Rv		>6.25 µg/mL
CCOC(=O)c1ccc(-c2ccc(C(=O)OCC)cc2N)c(N)c1			MIC	H37Rv		50 µg/mL
COc1ccccc1CSc1ccccn1			MIC90	H37Rv		>6.25 µg/mL
Cc1c(O)c(=O)ccn1CCO		BACTEC	MIC bound	H37Rv		>12.5 µg/mL
c1ccc(OCCOc2ccccc2)cc1			MIC	H37Rv		>100 µg/mL

A second listing of 7 rows from above:

SMILES | dose | method | read-out | strain or isolate | cell line | result
O=C(Nc1ccc(NC(=O)c2cccc(S(=O)(=O)[O-])c2)c2c1C(=O)c1ccccc1C2=O)c1cccc(S(=O)(=O)[O-])c1.[Na+].[Na+] |  |  | MIC | H37Rv |  | >100 µg/mL
COc1cccc(Sc2ccncc2)c1 | 6.25 µg/mL |  | inhibition | H37Rv |  | 12%
CCC1CC2CC3c4[nH]c5ccc(O)cc5c4CCN(C2)C13.Cl | 12.5 µg/mL | BACTEC | inhibition | H37Rv |  | -20%
CCCCCCCCCCCCCCCCCCn1c(C)ccc1C |  |  | MIC | H37Rv |  | >100 µg/mL
C=CC1(C)CCC2C(=CCC3C2(C)CC(O)C(O)C3(C)COC2OC(CO)C(O)C(O)C2O)C1 |  | BACTEC | MIC bound | H37Rv |  | >12.5 µg/mL
CCOC(=O)Nc1cc2nc(C)c(-c3cccc(N)c3)nc2c(N)n1 | 12.5 µg/mL |  | inhibition | H37Rv |  | 7%
Cc1ccc(Sc2nc(Cl)nc3nc[nH]c23)cc1C |  |  | MIC90 | H37Rv |  | >6.25 µg/mL

Inhibition is in % at the dose shown (toxicity tests: loss of growth or viability). An empty or dashed field is not shown. ECn is the concentration giving n% inhibition of infection, replication or growth. MIC50, MIC90 and the like: level of inhibition, or share of isolates inhibited. Two numbers with a dash give a range or band. MIC bound: limit read from a one-dose screen.